Compound potency records, mixed from different reports. Data source: NIAID ChemDB in PubChem.

Common to all: tests in culture; organism: Hepatitis C virus

An empty or dashed field is not shown. Conditions beyond the fields shown may differ between rows. ECn: concentration that inhibits the pathogen or its effect by n%.

structure,method,endpoint,strain or isolate,cell line,mutations,value
C[C@@]1(O)[C@H](O)[C@@H](CO)O[C@H]1n1cnc2c(N)ncnc21,luciferase,EC50,,Con-1,,0.3031 µM
O=C(O)c1c(-c2ccco2)nc(SCc2nc3ccccc3[nH]2)[nH]c1=O,replicon / PCR,EC90,,Huh7,,0.535 µM
NC(=O)c1nn(Cc2cccc(NC(=O)C3CC3)c2)c2ccccc12,fluorescence,EC50,J399EM,Huh7.5.1,,1.17 µM
CNC(=O)c1c(-c2ccc(F)cc2)oc2cc(N(CCO)S(C)(=O)=O)c(C3CC3)cc12,luciferase,EC50,2b,Huh7,,0.0162 µM
NC(=O)c1nn(Cc2ccc(NC(=O)C3CC3)cc2)c2ccccc12,fluorescence,EC50,J399EM,Huh7.5.1,,>10 µM
CC(=O)Nc1ccc(-c2ccc(Cl)cc2)c(COc2ccc(-c3nc4cc(C(=O)O)ccc4n3C3CCCCC3)cc2)c1,luciferase,EC50,4a,Huh7,,1.826 µM
O=C(O)c1c(-c2ccccc2O)nc(SCc2nc3ccccc3[nH]2)[nH]c1=O,replicon / PCR,EC50,,Huh7,,0.285 µM
C[C@@]1(O)[C@H](O)[C@@H](CO)O[C@H]1c1ccc2c(N)ncnn12,PCR,EC50,GT2b,Huh7.5,,0.41 µM
C[C@@]1(O)[C@H](O)[C@@H](CO)O[C@H]1n1cnc2c(N)ncnc21,luciferase / reporter gene,EC50,genotype 1b,Huh7.5,Y93N+V153M+M202L+M265V,0.0242 µM
NC(=O)c1nn(Cc2cccc(NC(=O)c3ccc(F)cc3)c2)c2ccccc12,fluorescence,EC50,J399EM,Huh7.5.1,,0.013 µM
CC(C)(C)OC(=O)N[C@@H]1CCCCC/C=C\[C@@H]2C[C@@]2(C(=O)NS(=O)(=O)C2CC2)NC(=O)[C@@H]2C[C@@H](OC(=O)N3Cc4cccc(F)c4C3)CN2C1=O,antigen,EC50,JFH-1,Huh7.5,,0.055 µM
O=C(O)c1c(-c2ccc(O)cc2)nc(NCc2nc3ccccc3[nH]2)[nH]c1=O,replicon / PCR,EC50,,Huh7,,0.512 µM
CCC[C@H](NC(=O)[C@@H]1[C@H]2CCC[C@H]2CN1C(=O)[C@@H](NC(=O)[C@@H](NC(=O)c1cnccn1)C1CCCCC1)C(C)(C)C)C(=O)C(=O)NC1CC1,antigen,EC50,452,Huh7.5,,10.4 µM
CC[C@H](C)C(=O)O[C@H]1CC=CC2C=C[C@H](C)[C@H](CC[C@@H]3C[C@@H](O)CC(=O)O3)[C@H]21,luciferase / replicon,EC90,,Huh 5-2,,4.7 µM
C=CC(=O)NCC(=O)N1C[C@H](Oc2nccc3ccc(Br)cc23)C[C@H]1C(=O)N[C@]1(C(=O)NS(=O)(=O)C2CC2)C[C@H]1C=C,luciferase,EC50,1b D168A,,,>3 µM
NC(=O)c1nn(Cc2cccc(NC(=O)c3ccccc3)c2)c2ccccc12,fluorescence,EC50,J399EM,Huh7.5.1,,0.125 µM
C[C@@]1(O)[C@H](O)[C@@H](CO)O[C@H]1n1ccc2c(N)ncnc21,luciferase,EC50,GTab (Con1),Huh7,,0.2 µM
C[C@@]1(O)[C@H](O)[C@@H](CO)O[C@H]1n1cnc2c(N)ncnc21,luciferase,EC50,GT4a,Huh7-Lunet,,0.24 µM
COc1cccc(C(=O)Nc2cccc(Cn3nc(C(N)=O)c4ccccc43)c2)c1,fluorescence,EC50,J399EM,Huh7.5.1,,0.346 µM
CC1CCC(C(=O)N(c2cc(C#CC(C)(C)C)sc2C(=O)O)C2CCC(O)CC2)CC1,luciferase,EC50,GT2a (JFH1),Huh7-Lunet,,13.9 µM
N#Cc1c(-c2ccccc2O)nc(SCc2nc3ccccc3[nH]2)[nH]c1=O,replicon / PCR,EC50,,Huh7,,0.145 µM

Repeating the final 2 entries:

structure	method	endpoint	strain or isolate	cell line	mutations	value
CC1CCC(C(=O)N(c2cc(C#CC(C)(C)C)sc2C(=O)O)C2CCC(O)CC2)CC1	luciferase	EC50	GT2a (JFH1)	Huh7-Lunet		13.9 µM
N#Cc1c(-c2ccccc2O)nc(SCc2nc3ccccc3[nH]2)[nH]c1=O	replicon / PCR	EC50		Huh7		0.145 µM